Results of unrelated studies side by side (data: NIAID ChemDB).

Shared fields: tests on isolated targets; species: Hepatitis C virus; protein: NS5B polymerase

Blank or dashed fields: not listed here. Two numbers with a dash give a range or band. Rows are shuffled and stem from different studies. Percent inhibition refers to the dose given; in toxicity tests it is the harm to the cells. ICn: concentration for n% inhibition.

structure	tested at	read-out	strain	value
O=C(N[C@H](Cc1c[nH]c2ccc(O)cc12)C(=O)O)c1ccc2c(c1)nc(-c1ccoc1)n2C1CCCCC1	-	IC50	-	<1 µM
COc1ccc(-c2ccc(Cl)cc2)c(-c2ccc3cc(-c4nc5cc(C(=O)O)ccc5n4CCC(C)C)ccc3n2)c1	100 µM	inhibition	-	98.77%
CCCCSc1nc(Nc2ccc(N(CC)CC)cc2)cc(N2CCN(C(=O)c3ncccn3)CC2)n1	0.1 µg/mL	inhibition	-	30–55%
O=C(NC(Cc1c[nH]c2ccc(O)cc12)C(=O)O)c1ccc2c(c1)nc(-c1ccc3nc(-c4ccccc4)cnc3c1)n2C1CCCCC1	100 µM	inhibition	-	100%
CCSc1nc(Nc2ccc(N(CC)CC)cc2)cc(N2CCN(C(=O)c3ncccn3)CC2)n1	0.1 µg/mL	inhibition	-	30–55%
O=C(N[C@H](C(=O)O)c1ccc(O)cc1)c1ccc2c(c1)nc(-c1ccoc1)n2C1CCCCC1	-	IC50	-	<1 µM
Cc1nc(C(=O)O)sc1-c1ccc(NC(=O)C2(NC(=O)c3ccc4c(c3)nc(-c3ccoc3)n4C3CCCCC3)CCCC2)cc1	-	IC50	-	0.5–5 µM
Cc1nc(C[C@H](Cc2ccc(OCC(=O)O)cc2)NC(=O)c2ccc3c(c2)nc(-c2ccoc2)n3C2CCCCC2)cs1	-	IC50	-	1–5 µM
O=C(O)/C=C/c1ccc(NC(=O)C2(NC(=O)c3ccc4c(c3)nc(-c3cccs3)n4C3C[C@H]4CC[C@@H]3C4)CCCC2)cc1	-	IC50	-	<0.5 µM
CN1CCN(C(=O)c2ccc3c(c2)nc(-c2cc4ccc(-c5ccccc5-c5ccccc5)nc4cc2F)n3C2CCCCC2)CC1	100 µM	inhibition	-	74.23%
CCN(CC)c1ccc(Nc2cc(N3CCN(C(=O)c4ccncc4)CC3)nc(SCc3ccccc3)n2)cc1	0.1 µg/mL	inhibition	-	30–55%
O=C(O)/C=C/c1ccc(NC(=O)C2(NC(=O)c3ccc4c(c3)nc(-c3ccoc3)n4C3CCCCC3)CCCC2)cc1	-	IC50	-	<0.5 µM
CCC[C@]1(CC(=O)O)OCCc2c1[nH]c1c(C)ccc(C#N)c21	-	IC50	Genotype 4	17.8 µM
CC(NC(=O)c1ccc2c(c1)nc(-c1ccoc1)n2C1CCCCC1)C(=O)Nc1cccc(-c2ccc(O)cc2)c1	-	IC50	-	5–25 µM
COc1ccc(-c2ccc(Cl)cc2)c(-c2ccc3cc(-c4nc5cc(C(=O)O)cnc5n4C4CCCCC4)ccc3n2)c1	33 µM	inhibition	-	100%
O=C(N[C@H](C(=O)O)c1c[nH]c2ccc(O)cc12)c1ccc2c(c1)nc(-c1nccc3ccccc13)n2C1CCCCC1	-	IC50	-	1–5 µM
CCc1ccc(C(=O)OCc2ccccc2)c(Nc2ccc(N3CCOCC3)cc2)n1	0.1 µg/mL	inhibition	-	30–55%
C[C@@H](NC(=O)c1ccc2c(c1)nc(-c1ccoc1)n2C1CCCCC1)C(=O)Nc1ccc(/C=C/C(=O)O)cc1	-	IC50	-	<0.5 µM
O=C(N[C@H](C(=O)O)c1c[nH]c2ccc(O)cc12)c1ccc2c(c1)nc(-c1cc3ccccc3[nH]1)n2C1CCCCC1	-	IC50	-	1–5 µM
CC[C@@H](NC(=O)c1ccc2c(c1)nc(-c1ccoc1)n2C1CCCCC1)C(=O)Nc1ccc(/C=C/C(=O)O)cc1	-	IC50	-	<0.5 µM
O=C(O)Cc1ccc(NC(=O)c2ccc3c(c2)nc(-c2ccoc2)n3C2CCCCC2)cc1	-	IC50	-	10–25 µM
O=C(O)/C=C/c1ccc(NC(=O)[C@@H](NC(=O)c2ccc3c(c2)nc(-c2ccoc2)n3C2CCCCC2)c2ccccc2)cc1	-	IC50	-	0.5–5 µM
Cc1cc(-c2nc3cc(C(=O)N[C@H](C(=O)O)c4c[nH]c5ccc(O)cc45)ccc3n2C2CCCCC2)n[nH]1	-	IC50	-	1–5 µM
COc1cc(C(=O)O)ccc1NC(=O)C1(NC(=O)c2ccc3c(c2)nc(-c2ccoc2)n3C2CCCCC2)CCCC1	-	IC50	-	0.5–5 µM
CCOc1cc([C@@H](C)NC(=O)c2ccc3c(c2)nc(-c2ccco2)n3C2CCCCC2)ccc1OC	-	IC50	-	5–10 µM